# Laboratory results: PubChem BioAssay AID504761 (Drosophila RNAi Screening Center, 2011)
# Test: 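Fly genes whose silencing reduces dengue virus type 2 infection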 (primary screen)
# System: D.Mel-2 cells from Drosophila
# Knock-down reagent: long dsRNA against Drosophila genes
# Conditions: infection with dengue virus type 2; dose and infection time not stated
# Read-out: 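Per well on two replicate plates, imaging gave the percent of cells positive for viral envelope protein, ranked by infection, and a nuclear count of cells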
# Direction: infection score: higher = more virus-infected cells; cell count: higher = more cells in the well
# Call rule: 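Very low infection ranking in both replicate wells (chance probability at most 0.065), then a retest showing infection dropped 1.5-fold or more at p below 0.05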
# Meaning of the calls: active = confirmed: knock-down lowers infection; inactive = not picked or not confirmed
# The deposit covers about 22,000 reagents; shown is a random part of those that have a named target and a result. Over the whole deposit, 116 (0.52%) got an active call. 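Calls depend on retest data that are not deposited; infection was ranked per plate without normalising between plates; the unit of the infection score is not given.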 The raw values are shown without normalisation. A number with no mark means an inactive call. Not stated in the record: the amount of reagent, the time to read-out.
target gene,amplicon,"infection score, replicate 1","infection score, replicate 2","cell count, replicate 1","cell count, replicate 2"
CG3349,DRSC10359,3.49,2.9,6382,6696
CG2663,DRSC12314,4.84,27,6987,5958
CG2663,DRSC28701,10.1,8.65,5547,5642
csw (corkscrew),DRSC18756,2.51,0.75,6129,6516
csw (corkscrew),DRSC23326,2.27,14.8,6708,6887
Fer2 (48 related 2),DRSC15925,12.1,5.67,5463,6309
"Dnah3 (dynein, axonemal, heavy chain 3)",DRSC08130,0.35,0.79,5700,5707
"Dnah3 (dynein, axonemal, heavy chain 3)",DRSC08513,1.75,1.23,6129,5628
"Dnah3 (dynein, axonemal, heavy chain 3)",DRSC28789,10.2,9.32,2599,1835
CG14743,DRSC06479,4.86,5.54,6744,3572
CG17168,DRSC20904,13.5,2.66,4589,4516
CG17168,DRSC29872,46.1,27,4023,5594
CG9568,DRSC03265,3.3,11.2,6544,5694
mAcon2 (Mitochondrial aconitase 2),DRSC15629,4.02,6.82,6597,6807
mAcon2 (Mitochondrial aconitase 2),DRSC24696,4.43,5.23,6450,6008
Obp83b (Odorant-binding protein 83b),DRSC12360,2.32,4.32,6634,6511
Obp83b (Odorant-binding protein 83b),DRSC25688,5.72,0.79,6117,6357
Task6 (TWIK-related acid-sensitive K[+] channel 6),DRSC16530,1.24,10.7,5967,6291
fat-spondin,DRSC07617,8.3,6.51,5865,1735
anne (anne boleyn),DRSC17103,0.76,0.37,4184,4059
anne (anne boleyn),DRSC29952,14,3.92,5123,5312
CG15393 (retired record),DRSC00407,1.69,1.47,6463,6530
CG15393 (retired record),DRSC27448,11.1,5.77,6631,6944
CG4650,DRSC02767,4.2,2.26,5828,6804
Psn (Presenilin),DRSC11743,9.44,14.2,6008,5864
CG9030,DRSC20139,6.58,3.44,6475,6425
Akh (Adipokinetic hormone),DRSC08138,4.22,3.53,5502,5616
Akh (Adipokinetic hormone),DRSC28433,0.42,11.4,471,5978
Cpr47Ec (Cuticular protein 47Ec),DRSC07332,18.1,11.1,5836,6076
CG5707,DRSC08573,6.46,21.5,6269,4844
CG5707,DRSC24854,1.5,3.82,6393,6149
Gr98c (Gustatory receptor 98c),DRSC22212,9.05,3.41,6351,6941
Gr98c (Gustatory receptor 98c),DRSC26546,0.6,10.1,7137,6076
Idgf3 (Imaginal disc growth factor 3),DRSC03351,28.1,10.7,5727,6293
CG14624,DRSC18634,0.47,3.73,6170,6747
CG14624,DRSC25253,5.01,6.08,6387,6484
CHMP2B (Charged multivesicular body protein 2b),DRSC10436,9.89,2.71,6209,6426
CHMP2B (Charged multivesicular body protein 2b),DRSC26221,10.8,4.27,6594,5857
N (Notch),DRSC18685,1.09,7,6173,5700

6 entries from above, ordered by “cell count, replicate 2”, ascending:
target gene,amplicon,"infection score, replicate 1","infection score, replicate 2","cell count, replicate 1","cell count, replicate 2"
CG2663,DRSC28701,10.1,8.65,5547,5642
CG2663,DRSC12314,4.84,27,6987,5958
Fer2 (48 related 2),DRSC15925,12.1,5.67,5463,6309
csw (corkscrew),DRSC18756,2.51,0.75,6129,6516
CG3349,DRSC10359,3.49,2.9,6382,6696
csw (corkscrew),DRSC23326,2.27,14.8,6708,6887
